Assay results taken from ChEMBL document CHEMBL4371059 (J Med Chem, 2019).

Columns and labels:
[1] = tested on: Mus musculus; assay: Anti-inflammatory activity against OPRK deficient mouse model of MOG-induced autoimmune encephalomyelitis assessed as reduction in TH17 cell population in lumbar spinal cord at 100 uL of 20 uM solution administered ip starting from day 1 post immunization and measured 9 to 16 days post …
[2] = tested on: Mus musculus; assay: Anti-inflammatory activity against OPRK deficient mouse model of MOG-induced autoimmune encephalomyelitis assessed as inhibition of development of clinical symptoms at 100 uL of 20 uM solution administered ip starting from day 1 post immunization and measured 9 to 16 days post Mycobacterium …
[3] = tested on: Mus musculus; assay: Anti-inflammatory activity against OPRK deficient mouse model of MOG-induced autoimmune encephalomyelitis assessed as reduction in immune cell infiltration in to CNS at 100 uL of 20 uM solution administered ip starting from day 1 post immunization and measured 9 to 16 days post Mycobacterium …
[4] = tested on: Mus musculus; assay: Anti-inflammatory activity against OPRK deficient mouse model of MOG-induced autoimmune encephalomyelitis assessed as increase in CD5-positive/Foxp3-positive Treg cells at 100 uL of 20 uM solution administered ip starting from day 1 post immunization and measured 9 to 16 days post Mycobacterium …

O=C(Cc1ccc(Cl)c(Cl)c1)N1CCN(Cc2cn(CCF)nn2)[C@H]2CCC[C@H](N3CCCC3)[C@H]21
inactive: Activity [1] | inhibition [2] | Activity [3] | Activity [4]

O=C(Cc1ccc(Cl)c(Cl)c1)N1CCN[C@H]2CCC[C@H](N3CCCC3)[C@H]21
inactive: Activity [1] | inhibition [2] | Activity [3] | Activity [4]

The source made the active and inactive calls.
